According to US20050202443:
Construct, isoform or probe ends are uncertain for at least one entry. Tags and fusion partners may be left off the protein sequences shown.

Test system: T1, HpyC1I restriction endonuclease (Helicobacter pylori)
T1 sequence: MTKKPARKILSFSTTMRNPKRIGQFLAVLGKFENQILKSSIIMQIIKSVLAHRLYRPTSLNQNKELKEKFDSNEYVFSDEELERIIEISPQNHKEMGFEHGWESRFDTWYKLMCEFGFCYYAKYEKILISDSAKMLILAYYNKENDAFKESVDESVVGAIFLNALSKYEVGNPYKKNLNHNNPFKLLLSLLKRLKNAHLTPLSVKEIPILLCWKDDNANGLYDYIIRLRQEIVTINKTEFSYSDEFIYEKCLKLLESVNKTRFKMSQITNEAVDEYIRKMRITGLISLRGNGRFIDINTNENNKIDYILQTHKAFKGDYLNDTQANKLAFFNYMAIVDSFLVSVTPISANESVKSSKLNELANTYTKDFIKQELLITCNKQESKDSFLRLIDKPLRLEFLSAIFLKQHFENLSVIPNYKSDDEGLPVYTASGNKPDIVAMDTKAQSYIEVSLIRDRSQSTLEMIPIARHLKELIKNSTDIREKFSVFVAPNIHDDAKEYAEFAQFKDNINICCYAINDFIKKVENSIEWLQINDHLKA
Test: enzyme reaction in vitro
Conditions: 10 mM Bis Tris Propane-HCl, 10 mM MgCl2, 1 mM DTT pH 7.0, 100 ug/ml BSA, 37 C; about 60 ng protein digests lambda DNA in 1 h; one-base 5' overhang; 10 junctions sequenced; purified recombinant protein; only the motif is given

Which “activity on this sequence” value does the source give for “CCATC (double strand) [HpyC1I recognition site in lambda DNA]” here?
Its value is “active”.
